Source: the supplement of paper PMC6723410

Test system: GUMC-403
Assay: viability at highest tested concentration (max response) relative to DMSO (% of DMSO control); higher = less cytotoxic
Conditions: library / dose series: MIPE library, 11-point 1:3 dilution; top concentration 46.1 µM; 48 h
In short: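 In 1536-well plates, 700 GUMC-403 papilloma cells per well, taken from a patient and grown by conditional reprogramming, were seeded in 5 μL F + Y medium and incubated overnight at 37 °C. Compounds were pinned in at 23 nL in an 11-point 1:3 series, and left for 48 h before CellTiter-Glo luminescence was read on a ViewLux against vehicle (100%) and empty (0%) wells. Reported values are viability at the highest tested concentration relative to vehicle control.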

`CCOC(=O)C(=O)CBr` showed a viability of 114.
